Measured values from several laboratories, pooled; numbers as filed in NIAID ChemDB.

Shared fields: whole-cell or culture tests; species: Bovine viral diarrhea virus; cells: MDBK; read-out: EC50

ECn is the concentration giving n% inhibition of infection, replication or growth. An empty or dashed field is not shown. Rows are shuffled and stem from different studies.

| SMILES | strain or isolate | method | result |
|---|---|---|---|
| CC1S/C(=N/N=C2\C(=O)Nc3ccc([N+](=O)[O-])cc32)N(c2ccc(Br)cc2)C1=O | - | cytopathic effect | 13 µg/mL |
| Brc1ccc(Cn2ccc3nc(-c4ccccc4)nc-3c2)cc1 | NADL (TYPE 1) | virus yield | 0.074 µM |
| c1ccc(-c2nc3ccn(Cc4ccncc4)cc-3n2)cc1 | PE515 | cytopathic effect | 0.041 µg/mL |
| Cc1ccc(NC(=S)N=Nc2c(O)n(CN3CCOCC3)c3ccc([N+](=O)[O-])cc23)cc1 | - | cytopathic effect | >21 µg/mL |
| CC(=O)O[C@@H]1[C@H](OC(C)=O)[C@@H](CO)O[C@H]1n1cc(/C(Cl)=C\I)c(=O)[nH]c1=O | NADL | cytopathic effect | >100 µM |
| COc1ccccc1Cn1ccc2nc(-c3ccccc3)nc-2c1 | PE515 | cytopathic effect | 0.016 µg/mL |
| NCCCCC(N)C(=O)Nc1ccc(-c2ccc(NC(=O)Nc3nc4c(Cl)cccc4s3)nc2)cc1 | F78I | plaque count | 9.6 µM |
| N#Cc1cccc(Cn2ccc3nc(-c4ccccc4)nc-3c2)c1 | PE515 | cytopathic effect | 0.245 µg/mL |
| O=[N+]([O-])c1ccc2c(c1)c(N=NC(=S)Nc1ccccc1)c(O)n2CN1CCCCC1 | - | cytopathic effect | >20 µg/mL |
| Brc1ccc(Cn2ccc3nc(-c4cccc(I)c4)nc-3c2)cc1 | PE515 | cytopathic effect | 0.0042 µg/mL |
| CC(=O)O[C@H]1C[C@H](n2cc(/C(Cl)=C\I)c(=O)[nH]c2=O)O[C@@H]1CO | NADL | cytopathic effect | >100 µM |
| Brc1ccc(Cn2ccc3nc(CCc4ccccc4)nc-3c2)cc1 | PE515 | cytopathic effect | 0.026 µg/mL |
| O=[N+]([O-])c1ccc2c(c1)c(N=NC(=S)NC1CCCCC1)c(O)n2CN1CCOCC1 | - | cytopathic effect | >17 µg/mL |
| CC(=O)O[C@@H]1C[C@@H](CO)O[C@H]1n1cc(C#CI)c(=O)[nH]c1=O | NADL | cytopathic effect | >100 µM |
| O=C1Nc2ccc([N+](=O)[O-])cc2/C1=N/N=C1/SCC(=O)N1C1CCCCC1 | - | cytopathic effect | >3 µg/mL |
| Cc1cccc(-c2nc3ccn(Cc4ccc(Br)cc4)cc-3n2)c1 | PE515 | cytopathic effect | 0.1 µg/mL |
| O=[N+]([O-])c1ccc2[nH]c(O)c(N=NC(=S)Nc3ccc(F)cc3)c2c1 | - | cytopathic effect | >20 µg/mL |
| CC(=O)O[C@@H]1[C@H](OC(C)=O)[C@@H](CO)O[C@H]1n1cc(/C(I)=C\I)c(=O)[nH]c1=O | NADL | cytopathic effect | >100 µM |

2 of the rows above, restated:

c1ccc(-c2nc3ccn(Cc4ccncc4)cc-3n2)cc1 ; strain or isolate: PE515 ; method: cytopathic effect ; result: 0.041 µg/mL
Brc1ccc(Cn2ccc3nc(-c4cccc(I)c4)nc-3c2)cc1 ; strain or isolate: PE515 ; method: cytopathic effect ; result: 0.0042 µg/mL